In PubChem BioAssay (NCATS):
Only a part is listed here, and it is no random draw. Results filed as inconclusive are left out. For some of these results: Measured potencies and affinities stand elsewhere. Calls of active or inactive are those of the source.

Sequences of proteins named here, by UniProt entry; tags and fusion partners are left off. A change or cut given only in a name is not applied to a line headed by its entry.
UniProt P09992: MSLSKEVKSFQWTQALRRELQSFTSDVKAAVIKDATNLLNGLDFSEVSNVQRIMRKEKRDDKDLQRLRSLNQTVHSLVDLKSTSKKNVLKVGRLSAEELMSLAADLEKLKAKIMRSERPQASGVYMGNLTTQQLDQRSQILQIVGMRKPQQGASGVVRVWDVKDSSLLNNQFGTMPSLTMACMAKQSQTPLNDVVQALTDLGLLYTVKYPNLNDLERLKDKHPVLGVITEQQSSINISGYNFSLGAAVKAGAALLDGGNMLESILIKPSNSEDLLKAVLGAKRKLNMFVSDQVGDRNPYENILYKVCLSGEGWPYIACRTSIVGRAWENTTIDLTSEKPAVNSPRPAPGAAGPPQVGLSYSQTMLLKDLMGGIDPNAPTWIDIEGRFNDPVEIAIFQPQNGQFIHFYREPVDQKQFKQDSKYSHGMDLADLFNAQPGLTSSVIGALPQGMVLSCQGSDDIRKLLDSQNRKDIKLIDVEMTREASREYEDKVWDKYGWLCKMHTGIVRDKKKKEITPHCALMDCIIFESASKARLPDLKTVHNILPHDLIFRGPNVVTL

Tests used:
[1] = test system: Zika virus NS2B-NS3 protease (unlinked complex); experiment: Primary screen GU Rhodamine qHTS for Zika virus inhibitors: Unlinked NS2B-NS3 protease assay (AID 1347159); details: Recombinant ZIKV NS2B-NS3 protease, Rhodamine110 substrate fluorescence; at 107 µM (top of the series); further: on the % scale 0 is the no-effect control and ±100 the full control effect; nearly all actives have a fitted effect of over 60% in size
Summary of the method: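 Percent inhibition derives from the 15-min fluorescence change (ex 480, em 540 nm), normalized to no-enzyme and no-inhibitor wells. Reactions contained 25 nM NS2B-NS3 complex and 1.5 microM substrate in 10 mM Tris-HCl pH 8.0.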

[2] = test system: Zika virus NS2B-NS3 protease (linked construct); experiment: Primary screen NINDS Rhodamine qHTS for Zika virus inhibitors (AID 1347160); details: purified NS2B-NS3 protease, Rhodamine110 substrate fluorescence; activity change, negative = inhibition: at 57.1 µM (top of the series); further: nearly all actives have a fitted effect of over 55% in size; on activity change, negative = inhibition: on the % scale 0 is the no-effect control and ±100 the full control effect
Summary of the method: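 In 10 mM Tris-HCl pH 8.0 containing 0.01% Tween 20, linked NS2B-NS3 protease (25 nM final) is exposed to test compounds for 15 min. Cleavage of 1.5 microM Rhodamine110 substrate is tracked by fluorescence over 15 min.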

[3] = Cytotoxicity counterscreen for inhibitors of SARS-CoV-2 cell entry (AID 1645845; calls by dose curve; further: on the % scale 0 is the no-effect control and ±100 the full control effect; nearly all actives have a fitted effect of over 50% in size); details: cell viability (SARS-CoV-2 entry assay cells); at 57.1 µM (top of the series)
[4] = Ebola virus entry assay, green channel fluorescence
[5] = Ebola virus entry assay, reporter ratio channel; Channel type: primary
[6] = Ebola virus entry assay, blue channel (ratio component)
[7] = qHTS assay for measurement of the activity of small molecule inhibitors on Zika virus induced Caspase-3 activity in human iPSC derived neural progenitor cells (hNPCs) (AID 1224857); details: hNPCs ZIKV-induced caspase-3/7, Caspase-Glo luminescence, 6 h; at 45.7 µM (top of the series) unless noted; further: % of control where 0% means no effect; nearly all actives have a fitted effect of over 65% in size
[8] = qHTS assay for measurement of the activity of small molecule inhibitors on Zika virus induced Caspase-3 activity in human astrocytoma cells (AID 1224859); details: SNB-19 ZIKV-induced caspase-3/7, luminescence, 6 h; at 45.7 µM (top of the series) unless noted;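 further: plate controls were ZIKV-infected untreated cells for no effect and uninfected cells for full effect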
[9] = NS1 protein of Zika virus - qHTS assay to identify small molecule inhibitors in human HEK 293 cells (AID 1347053); details: HEK293 ZIKV MR766 infection, NS1 TR-FRET, 24 h; at 46.1 µM (top of the series) unless noted;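 further: plate controls were infected untreated cells for no effect and uninfected cells for full effect; nearly all actives have a fitted effect of over 55% in size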
[10] = qHTS for Inhibitors of the Functional Ribonucleoprotein Complex (vRNP) of Lassa (LASV) Arenavirus: LASV Primary Screen - GLuc reporter signal (AID 1347082; calls by dose curve; tested in HEK293 reporter line; further: on the % scale 0 is the no-effect control and ±100 the full control effect; nearly all actives have a fitted effect of over 60% in size); details: LASV minigenome vRNP, Gaussia luciferase reporter; at 57.5 µM (top of the series) unless noted
[11] = qHTS for Inhibitors of the Functional Ribonucleoprotein Complex (vRNP) of Lassa (LASV) Arenavirus: Viability assay - alamar blue signal for LASV Primary Screen (AID 1347083; calls by dose curve; tested in HEK293 reporter line; further: on the % scale 0 is the no-effect control and ±100 the full control effect; nearly all actives have a fitted effect of over 80% in size); details: cell viability, alamar blue fluorescence (LASV minigenome counter-screen); at 57.5 µM (top of the series) unless noted
[12] = qHTS for Inhibitors of the Functional Ribonucleoprotein Complex (vRNP) of Lymphocytic Choriomeningitis Arenaviruses (LCMV): Viability assay - alamar blue signal for LCMV Primary Screen (AID 1347085; calls by dose curve; tested in HEK293 reporter line; further: on the % scale 0 is the no-effect control and ±100 the full control effect; nearly all actives have a fitted effect of over 80% in size); details: alamar blue viability counter-screen, LCMV vRNP screen cells; at 57.5 µM (top of the series) unless noted
[13] = molecular target: Nucleoprotein (Lymphocytic choriomeningitis virus (strain Armstrong)) (UniProt P09992); experiment: qHTS for Inhibitors of the Functional Ribonucleoprotein Complex (vRNP) of Lymphocytic Choriomeningitis Arenaviruses (LCMV): LCMV Primary Screen - GLuc reporter signal (AID 1347086; calls by dose curve; further: on the % scale 0 is the no-effect control and ±100 the full control effect; nearly all actives have a fitted effect of over 70% in size); details: LCMV minigenome vRNP cell assay, Gaussia luciferase reporter; at 57.5 µM (top of the series) unless noted
[14] = test system: Zika virus NS2B-NS3 protease; experiment: Primary screen GU AMC qHTS for Zika virus inhibitors (AID 1347154); details: Zika NS2B-NS3 unlinked protease, AMC fluorogenic substrate; at 54.1 µM (top of the series) unless noted;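 further: 0% = no-inhibitor control and -100% = no-enzyme control; nearly all actives have a fitted effect of over 70% in size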
[15] = Primary qHTS for inhibitors of MERS-S pseudo-typed particle cell entry (AID 1479149; calls by dose curve; further: nearly all actives have a fitted effect of over 60% in size); details: MERS-S pseudotyped particle entry, luciferase; at 57.1 µM (top of the series)
[16] = Primary qHTS for Vero E6 cytotoxicity: counterscreen for inhibitors of SARS-S pseudo-typed particle cell entry (AID 1479150; calls by dose curve); details: cell viability; at 57.1 µM (top of the series)
[17] = Primary qHTS for inhibitors of La Crosse Virus (LACV) - induced cell death in SH-SY5Y cells (AID 1508616); details: SH-SY5Y LACV cytopathicity rescue, ATP luminescence, 6 d; at 9.63 µM (top of the series) unless noted;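 further: top concentration of the series differs between compounds; 0% = infected DMSO wells and 100% = uninfected DMSO wells; higher means more rescue of cells from virus-induced death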
Summary of the method: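 Protection against LACV-induced cell death is scored in SH-SY5Y cells exposed to compounds and virus (0.01 MOI) for 6 days. Data normalized to virus-infected DMSO wells and virus-free DMSO wells.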

CCn1c(=O)n([C@@H]2CCN(CC3CCCCCCC3)C[C@H]2CO)c2ccccc21
inactive: activity change, negative = inhibition [1] -7.46% | activity change, negative = inhibition [2] 62% | activity change, negative = cytotoxicity [3] -10.1%

O=C(O[C@H]1CN2CCC1CC2)C1NCc2ccccc2[C@@H]1c1ccccc1 (some centres undefined)
inactive: outcome [2]

NC(=O)Nc1ccc([As](=O)(O)O)cc1
inactive: outcome [4] | outcome [5] | outcome [6] | activity change, negative = inhibition [7] -5.09% | activity change, negative = inhibition [8] -18.2% | activity change, negative = inhibition [9] 10.3% | activity change, negative = inhibition [10] 1.94% | activity change, negative = reduced viability [11] 4.51% | activity change, negative = lower viability [12] 0.596% | activity change, negative = inhibition [13] -7.86% | activity change, negative = inhibition [14] -3.61% | outcome [15] | outcome [16] | activity change [17] 3.68% [at 4.29 µM] | activity change, negative = cytotoxicity [3] 1.79%
